Experimental data reported in patent US20240066051A1, “NASAL SPRAY USING PENTOSAN POLYSULFATE AND MUCOPOLYSACCHARIDE POLYSULFATE FOR COVID-19 PREVENTION AND TREATMENT” (priority 2022, published 2024).

Target: T1, S-protein RBD (WT) (Severe acute respiratory syndrome coronavirus 2, UniProt P0DTC2)
T1 construct: made in house; host or cells: Expi293F cells
Set-up: species or system SARS-CoV-2
Details: read-out: IC50 against the S-protein RBD binding to immobilized heparin

Substance: pentosan polysulfate [PPS]
- IC50: ~35 nM
